From PMC6886523 (Nature chemical biology, 2017) come the findings set out here.

The assay relates to Mtb. The format is cell-based.

For `N#C[C@@H]1N[C@@H](CO)[C@H]1c1ccc(-c2ccccc2F)cc1` [BRD4592, (2R,3S,4R)-3-(2′-fluoro-[1,1′-biphenyl]-4-yl)-4-(hydroxymethyl)azetidine-2-carbonitrile], the “activity against a diverse panel of Mtb clinical isolates, including drug-resistant strains” value was “comparable activity”.
